Values joined by “and” are separate entries in the source; they are usually repeats but may differ in a detail not shown here. Equal values may be shown once. Read-outs that look alike come from different tables or passages of the source.
Legend:
[1] = biological target: IAVI C22 EnvΔCT trimer (cleaved, membrane-derived) (HIV-1 isolate IAVI C22 (clade C)); experiment: pull-down
[2] = biological target: BG505 SOSIP.664 gp140 trimer (soluble, cleaved) (HIV-1 isolate BG505 (clade A)); experiment: ITC
[3] = biological target: BG505 SOSIP.664 gp140 trimer (soluble, cleaved) (HIV-1 isolate BG505 (clade A)); experiment: single particle EM
[4] = biological target: IAVI C22 EnvΔCT trimer (cleaved, membrane-derived) (HIV-1 isolate IAVI C22 (clade C)); experiment: single particle EM reconstruction
[5] = biological target: IAVI C22 EnvΔCT trimer (cleaved, membrane-derived) (HIV-1 isolate IAVI C22 (clade C)); experiment: single particle EM reconstruction; remark: listed apart in the source

Row | Substance | percent of total Env content purified [1] [%] | stoichiometry N [2] | stoichiometry N (Fabs per trimer) [3] | stoichiometry N (Fabs per trimer) [4] | stoichiometry N (Fabs per trimer) [5]
1 | PGT151 IgG (antibody) | 10 |  |  |  | 
2 | PGT151 Fab |  | 1.3 | 2 and 1 | 1 | 2
